Activity calls are given as the source filed them. The rule behind the calls is not given here.
Test system: Schistosoma mansoni
Experiment: Antischistosomal activity against newly transformed Schistosoma mansoni cercariae assessed as decrease in viability at 12.5 ug/ml after 72 hrs by microscopic analysis
Assay type: functional, organism-based

With `CC(C)(C)[C@]12C[C@](C(C)(C)C)(OO1)OO2` the inhibition was “inactive”.
`CC(=O)CCC1(Cc2ccc([N+](=O)[O-])cc2)[C@]2(C)OO[C@@]1(C)OO2` (stereo partly drawn) was tested, and the inhibition was “inactive”.
`CC(C)C[C@]12OO[C@](C)(OO1)C2C` (stereo partly drawn) was tested, and the inhibition was “inactive”.
